Results reported in paper PMC7933434, “Entropy-driven binding of gut bacterial β-glucuronidase inhibitors ameliorates irinotecan-induced toxicity” (Communications Biology, 2021).

The chains behind the UniProt entries cited, without tags or fusion partners. Where a name states a change or a piece, a line headed by the entry shows the natural chain unless it says otherwise.
UniProt Q8XP19: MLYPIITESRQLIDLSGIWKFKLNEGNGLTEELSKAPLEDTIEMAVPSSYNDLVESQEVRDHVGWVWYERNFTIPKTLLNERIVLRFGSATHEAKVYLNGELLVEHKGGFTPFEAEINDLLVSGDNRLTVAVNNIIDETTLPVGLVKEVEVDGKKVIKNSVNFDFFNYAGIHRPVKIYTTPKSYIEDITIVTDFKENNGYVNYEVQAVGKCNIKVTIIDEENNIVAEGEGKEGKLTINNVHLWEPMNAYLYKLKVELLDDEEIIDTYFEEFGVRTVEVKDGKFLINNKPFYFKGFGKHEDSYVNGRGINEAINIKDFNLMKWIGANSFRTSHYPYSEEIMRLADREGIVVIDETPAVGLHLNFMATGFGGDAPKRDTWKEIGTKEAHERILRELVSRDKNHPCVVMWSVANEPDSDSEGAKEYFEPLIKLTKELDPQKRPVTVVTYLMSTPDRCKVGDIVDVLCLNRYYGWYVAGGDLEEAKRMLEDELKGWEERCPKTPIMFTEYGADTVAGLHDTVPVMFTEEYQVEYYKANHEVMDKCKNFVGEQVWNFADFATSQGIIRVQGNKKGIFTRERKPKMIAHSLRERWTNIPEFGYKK

Target: CpGUS (Clostridium perfringens GUS) (Clostridium perfringens, UniProt Q8XP19)
Test: GUS inhibition assay, hydrolysis of 4-methylumbelliferyl-β-glucuronide, CpGUS
[1] = 50 mM sodium acetate pH 4.5, 37 °C

Row | SMILES | Ki [1] | Ki
1 | CCCCCC[C@@H]1NC[C@@H](O)[C@H](O)[C@H]1C(=O)O | 170 nM | –
2 | O=C(O)[C@H]1CNC[C@@H](O)[C@@H]1O [Inhibitor 1, Uronic isofagomine] | 6.5 nM | 6.5 nM
3 | CCC[C@@H]1NC[C@@H](O)[C@H](O)[C@H]1C(=O)O [Inhibitor 2, C6-propyl UIFG] | 620 nM | –
4 | CCCCCCCCC[C@@H]1NC[C@@H](O)[C@H](O)[C@H]1C(=O)O [Inhibitor 4, C6-nonyl UIFG] | 26 nM | –

Where two headings read alike, the source gives them in different places.
